Measured values from several laboratories, pooled; numbers as filed in NIAID ChemDB.

All rows: whole-cell or culture tests; organism: HIV-1; endpoint: fold resistance

Fold resistance: result on the changed form divided by that on wild type.

SMILES	changes	read by	cells	strain or isolate	result
COCCOC(=O)c1cc(NC(=O)C2=C(C)OCCS2)ccc1Cl	RT-V106A	syncytia	CEM	Nevirapine-resistant (RT V106A)	>16.7
Cc1cc(C)cc(S(=O)(=O)c2c(C(=O)NCCO)[nH]c3ccc(Cl)cc23)c1	RT-K103R V179D P225H	p24	C8166	EFV-resistant (RT K103R V179D P225H)	100
C=CCO/N=C/c1cc(NC(=S)c2ccoc2C)ccc1Cl	RT-L74V	cytopathic effect / XTT	CEM + CEM-SS	NL4-3	1.43
CCN1C(=O)c2c(O)c(=O)c(C(=O)NCc3ccc(F)c(Cl)c3F)cn2[C@H]2CCO[C@H]21	E138K/Q148K	luminescence	MT-2		2.3
C[C@H](Cn1cnc2c(N)ncnc21)OCP(=O)(O)O	RT-M184V	recombinant virus assay			0.7
CC1=C(C(=O)Nc2ccc(Cl)c(C(=O)OCC3CCC3)c2)SCCO1	RT-Y181C	syncytia	CEM	PYR-resistant (RT Y181C)	4.71
Cc1cc2[nH]cnc2cc1NC(=O)COc1ccc(Cl)cc1C(=O)c1cc(F)cc(C(F)(F)F)c1	RT-V108I	β-galactosidase	HeLa + HELA CD4+	HXB2	~1
Cc1cccc(S(=O)(=O)c2c(C(N)=O)[nH]c3ccc(Cl)cc23)c1	RT-K103R V179D P225H	cytopathic effect / MTT	C8166	Efavirenz-resistant (RT K103R V179D P225H)	52
Cc1cc(C)cc(C(=O)c2cc(Cl)ccc2OCC(=O)Nc2ccc(S(N)(=O)=O)cc2C)c1	RT-K103N G190A	β-galactosidase	HeLa + HELA CD4+	HXB2 (RT-K103N G190A) Recombinant	~1
CCc1c(OC#CC2CC2)c2cc(F)ccc2[nH]c1=O	RT-K103N		MT-4		13.3
O=C(COc1ccc(Cl)cc1C(=O)c1ccco1)Nc1ccc2cn[nH]c2c1	RT-Y181C	cytopathic effect / propidium iodide	MT-4	Nevirapine-resistant (RT Y181C)	~10
Cc1ccc(C)c(CS(=O)(=O)c2cccc[n+]2[O-])c1	RT-E138K	syncytia	CEM	IIIB	2.26
COc1ccc(/C=C/CSc2nc(Cc3c(F)cccc3F)c(C)c(=O)[nH]2)cc1	RT-K103N	cytopathic effect / MTT	MT-4	NNRTI-resistant	>9139
CC1=C(C(=O)Nc2ccc(C)c(C(=O)OC(C)C)c2)SCCO1	RT-L100I	syncytia	CEM	TIBO-resistant (RT L100I)	15.6
CC(C)Cc1c(OC2CCCC2)c2cc(Cl)ccc2[nH]c1=O	RT-Y181C		MT-4	Nevirapine-resistant (RT Y181C)	17.9
Cc1cc(-n2c(C)nnc2SCC(=O)Nc2ccccc2Br)c2ccccc2c1C	RT-Y188L	luciferase	HeLa + HeLa-JC53	NL4-3	194
COc1ccnc2[nH]cc(C(=O)C(=O)N3CCN(C(=O)c4ccccc4)C[C@H]3C)c12	GP41-I595F	RT activity	MT-2	LAI(GP41-I595F) Recombinant	8
CCCCCCCCCC[N+](C)(C)CCCNCc1c(O)cc2c(c1O)-c1cc(ccc1O)[C@H]1NC(=O)[C@@H]3NC(=O)C4NC(=O)[C@@H](Cc5ccc(c(Cl)c5)Oc5cc3cc(c5O)Oc3ccc(cc3Cl)[C@@H](O)[C@H](NC1=O)C(=O)N[C@@H]2C(=O)O)NC(=O)[C@H](N)c1ccc(O)c(c1)Oc1cc(O)cc4c1	RT-L100I	syncytia	CEM		1.89
Cc1ccc2c(C)ccc(-n3c(C)nnc3SCC(=O)Nc3ccc(S(N)(=O)=O)cc3Cl)c2n1	RT-Y188L	luciferase	HeLa + HeLa-JC53	NL4-3	25
CCc1c(Sc2ccccc2)n(COCc2ccccc2)c(=O)[nH]c1=O	RT-E138K	syncytia	CEM	IIIB	30
Nc1ccn([C@H]2CO[C@@H](CO)S2)c(=O)n1	RT-M184V	p24	PBMC	NL4-3	1.3
Cc1ccc(S(=O)(=O)c2c(C(N)=O)[nH]c3ccc(Cl)cc23)c(C)c1	RT-Y181C	cytopathic effect / MTT	MT-4	N119 nevirapine-resistant (RT Y181C)	37.5
CCN1C(=O)c2c(O)c(=O)c(C(=O)NCc3c(F)cc(F)cc3F)cn2[C@H]2CCOC[C@H]21	E92Q/N155H	luminescence	MT-2		0.9
C=Cc1cc(N(CC)CC)nc(SCc2ccc(OC)cc2)n1	RT-K103N	cytopathic effect / MTT	MT-4	NNRTI-resistant	<0.115
CC(C)c1c(Sc2ccccc2)n(COCc2ccccc2)c(=O)[nH]c1=O	RT-Y181C	syncytia	CEM	IIIB	100
CC1=C(C(=O)Nc2ccc(Cl)c(C(=O)OC3CCCCC3)c2)SCCO1	RT-E138K	syncytia	CEM	TSAO-resistant (RT E138K)	87.5
CCc1c(C(C)c2c(F)cccc2F)nc(SC/C=C/c2ccc([N+](=O)[O-])cc2)[nH]c1=O	RT-Y181C	cytopathic effect / MTT	MT-4	NNRTI-resistant	>1437500
COc1ccc(C)cc1CS(=O)(=O)c1cccc[n+]1[O-]	RT-Y181C	syncytia	CEM	IIIB	8.47
CCCC1=C(C(=O)Nc2ccc(Cl)c(C(=O)OC)c2)SCCO1	RT-L100I	syncytia	CEM	TIBO-resistant (RT L100I)	8.67
CCC(C)C#COc1c(C(C)C)c(=O)[nH]c2ccc(F)cc12	RT-103N V108I		MT-4	RT-K103N V108I	66.7
CCOCn1c(Sc2cc(C)cc(C)c2)c(CC)c(=O)[nH]c1=S	RT-K103N	syncytia	CEM	IIIB TIBO R82913-resistant (RT K103N)	36.7
CCCC1=C(C(=O)Nc2ccc(Cl)c(C(=O)OCC)c2)SCCO1	RT-E138K	syncytia	CEM	TSAO-resistant (RT E138K)	24.7
O=c1cc(Cc2ccc3ccccc3c2)nc(SC2CCCC2)[nH]1	RT-Y181C	cytopathic effect / MTT	MT-4	Nev^R(RT-Y181C)	>58.8
CCOCn1c(Sc2ccccc2)c(C(C)C)c(=O)[nH]c1=O	RT-Y181C	syncytia	CEM	IIIB	52
NS(=O)(=O)c1ccc(NC(=O)CSc2nnc(C(F)(F)F)n2-c2ccc(Cl)c3ccccc23)c(Cl)c1	RT-Y188L	luciferase	HeLa + HeLa-JC53	NL4-3	10
CC(C)c1c(SCC2CCC2)c2cc(F)ccc2[nH]c1=O	RT-Y181C		MT-4	Nevirapine-resistant (RT Y181C)	3.09
N#Cc1cc(Cl)cc(Oc2c(Br)ccc(CC(=O)Nc3ccc(S(N)(=O)=O)cc3Cl)c2F)c1	E138K		MT-4		2
CCCc1c(OC2CCCC2)c2cc(Br)ccc2[nH]c1=O	RT-Y181C		MT-4	Nevirapine-resistant (RT Y181C)	17.9
Cc1cc(C)cc(S(=O)(=O)c2c(C(N)=O)[nH]c3c(Cl)cc(Cl)cc23)c1	RT-K103R	p24	C8166	IIIB	>83
Cc1cc(S(N)(=O)=O)ccc1NC(=O)COc1ccc(Cl)cc1C(=O)c1cc(Cl)cc(C#N)c1	RT-K103N Y181C	β-galactosidase	HeLa + HELA CD4+	HXB2 (RT-K103N Y181C) Recombinant	~1
CCOC(=O)c1cc(NC(=O)C2=C(C)OCCS2)ccc1Cl	RT-L100I	syncytia	CEM	TIBO-resistant (RT L100I)	75
CCCc1c(OC2CCC2)c2cc(Cl)ccc2[nH]c1=O	RT-Y181C		MT-4	Nevirapine-resistant (RT Y181C)	>16.7
CC1=C(C(=O)Nc2ccc(Cl)c(C(=O)OC3CCCC3)c2)SCCO1	RT-E138K	syncytia	CEM	TSAO-resistant (RT E138K)	27.5
C=C(C)[C@@H]1CC[C@]2(C(=O)NCCCCCCCC(=O)N[C@@H](CC(C)C)[C@@H](O)CC(=O)O)CC[C@]3(C)[C@H](CC[C@@H]4[C@@]5(C)CC[C@H](O)C(C)(C)[C@@H]5CC[C@]43C)[C@@H]12	I84S	syncytia	HeLa P4 + HeLa	LAI	>200
Cc1cc(C)c(CS(=O)c2cccc[n+]2[O-])c(C)c1	RT-K103N	syncytia	CEM	IIIB	4.58
Cc1ccccc1S(=O)(=O)c1c(C(N)=O)[nH]c2ccc(Cl)cc12	RT-K103R V179D P225H	cytopathic effect / MTT	C8166	Efavirenz-resistant (RT K103R V179D P225H)	520
Cc1cc2cccc(C)c2c(-n2c(C)nnc2SCC(=O)Nc2ccccc2Br)c1C	RT-Y188L	luciferase	HeLa + HeLa-JC53	NL4-3	67
CCCc1c(OC2CCCC2)c2cc(OC)ccc2[nH]c1=O	RT-Y181C		MT-4	Nevirapine-resistant (RT Y181C)	>10.6

For reference, 6 entries again:

CCN1C(=O)c2c(O)c(=O)c(C(=O)NCc3ccc(F)c(Cl)c3F)cn2[C@H]2CCO[C@H]21 ; changes: E138K/Q148K ; read by: luminescence ; cells: MT-2 ; result: 2.3
COCCOC(=O)c1cc(NC(=O)C2=C(C)OCCS2)ccc1Cl ; changes: RT-V106A ; read by: syncytia ; cells: CEM ; strain or isolate: Nevirapine-resistant (RT V106A) ; result: >16.7
CCCC1=C(C(=O)Nc2ccc(Cl)c(C(=O)OC)c2)SCCO1 ; changes: RT-L100I ; read by: syncytia ; cells: CEM ; strain or isolate: TIBO-resistant (RT L100I) ; result: 8.67
CC(C)Cc1c(OC2CCCC2)c2cc(Cl)ccc2[nH]c1=O ; changes: RT-Y181C ; cells: MT-4 ; strain or isolate: Nevirapine-resistant (RT Y181C) ; result: 17.9
COc1ccnc2[nH]cc(C(=O)C(=O)N3CCN(C(=O)c4ccccc4)C[C@H]3C)c12 ; changes: GP41-I595F ; read by: RT activity ; cells: MT-2 ; strain or isolate: LAI(GP41-I595F) Recombinant ; result: 8
C=C(C)[C@@H]1CC[C@]2(C(=O)NCCCCCCCC(=O)N[C@@H](CC(C)C)[C@@H](O)CC(=O)O)CC[C@]3(C)[C@H](CC[C@@H]4[C@@]5(C)CC[C@H](O)C(C)(C)[C@@H]5CC[C@]43C)[C@@H]12 ; changes: I84S ; read by: syncytia ; cells: HeLa P4 + HeLa ; strain or isolate: LAI ; result: >200

Blank or dashed fields: not listed here. Lines come from different laboratories, so protocols vary.